{
  "source": "paper PMC7733455",
  "about": "“A novel multistage antiplasmodial inhibitor targeting Plasmodium falciparum histone deacetylase 1” (Cell Discovery, 2020)",
  "test_system": "3D7 schizont-stage transcriptome",
  "assay": "RNA-seq of schizont-stage 3D7 after treatment",
  "assay_type": "cell-based, Plasmodium falciparum",
  "conditions": "3D7 at the schizont stage",
  "note": "The amount applied is not stated for every result.",
  "data": [
    {"smiles": "Cl.Cn1cc(CN2CCC3(CCN(c4ncc(C(=O)NO)cn4)C3)C2)c2cc(C#N)ccc21", "note": "(centres unmarked) [JX21108]", "values": [
      {"measurement": "genes downregulated after treatment", "result": 505, "unit": "genes"},
      {"measurement": "genes upregulated after treatment", "result": 837, "unit": "genes"}
    ]}
  ]
}
